A mixed list of measured activities; the numbers were collected in NIAID ChemDB.

Shared fields: whole-cell or culture tests; agent: Staphylococcus aureus; read-out: MIC

An empty or dashed field is not shown. Conditions beyond the fields shown may differ between rows.

smiles | strain or isolate | value
CS(=O)(=O)N1CCN(c2ccc(N3C[C@H](COc4ccon4)OC3=O)cc2F)CC1 | 078 (oxford) | 4 µg/mL
CC[C@H]1OC(=O)[C@H](C)C(=O)[C@H](C)[C@@H](O[C@@H]2O[C@H](C)C[C@H](N(C)C)[C@H]2O)[C@@]2(C)C[C@@H](C)C(=NC(C)=O)[C@H](C)C(OC/C(=C\c3ccccc3)CO2)[C@]1(C)O | 27660 (erythromycin-resistant) | 0.5 µg/mL
CCCCCCCCCCCC[N+](C)(C)COCCC(C)C | ATCC33592 | 7.14 µM
CC[C@H]1OC(=O)[C@H](C)C(=O)[C@H](C)[C@@H](O[C@@H]2O[C@H](C)C[C@H](N(C)C)[C@H]2O)[C@@]2(C)C[C@@H](C)C(=NC(C)=O)[C@H](C)C(OC/C(=C\C#Cc3ccc(N)nc3)CO2)[C@]1(C)O | 29213 (erythromycin-susceptible) | 0.13 µg/mL
CCC1CN(c2c(F)cc3c(=O)c(C(=O)O)cn(C4CC4)c3c2OC)CCN1 | - | 0.11 µg/mL
O=C(O)NC[C@H]1CC(c2ccc(N3CCN(C(=O)CO)CC3)c(F)c2)=NO1 | UC9218 | 4 µg/mL
CC(=S)NC[C@H]1CN(c2ccc(-c3nnc(C(C)(C)N)s3)c(F)c2)C(=O)O1 | UC9213 (methicillin-susceptible) | 4 µg/mL
CC[C@H]1OC(=O)[C@H](C)C(=O)[C@H](C)[C@@H](O[C@@H]2O[C@H](C)C[C@H](N(C)C)[C@H]2O)[C@@]2(C)C[C@@H](C)C(=NC(C)=O)[C@H](C)C(OC/C=C/CO2)[C@]1(C)O | 29213 (erythromycin-susceptible) | 1 µg/mL
CCOC(=O)NC[C@H]1CN(c2ccc3c(c2)-n2cccc2COC3)C(=O)O1 | ATCC 29213 (MSSA) | 16 µg/mL
CC(=S)NC[C@H]1CN(c2ccc(-c3nnc(CN(C)C(=O)CO)s3)c(F)c2)C(=O)O1 | UC9213 (methicillin-susceptible) | 1 µg/mL
O=C1O[C@@H](CNc2ccon2)CN1c1ccc(N2CCOCC2)c(F)c1 | 078 (oxford) | 0.5 µg/mL
CC(=S)NC[C@H]1CN(c2ccc(-c3nnc(CNS(C)(=O)=O)s3)c(F)c2)C(=O)O1 | UC9213 (methicillin-susceptible) | 1 µg/mL
CC(=O)NC[C@H]1CN(c2ccc(SCCC#N)c(F)c2)C(=O)O1 | ATCC 29213 (linezolid-resistant) | >64 µg/mL
CC(=O)NC[C@H]1CN(c2ccc(-c3cnn(C(c4ccccc4)(c4ccccc4)c4ccccc4)c3)c(F)c2)C(=O)O1 | UC6685 (methicillin-resistant) | >32 µg/mL
O=C(NNC(=O)Nc1ccc(Cl)c(Cl)c1)Nc1ccc(Cl)c(Cl)c1 | MI273 | 4.9 µM
COc1ccc(-c2ccc(N3CC(CNC(C)=O)CC3=O)cc2)ccc1=O | UC9213 | >64 µg/mL
CC(=O)NC[C@H]1CN(c2ccc(Sc3ncc([N+](=O)[O-])s3)c(F)c2)C(=O)O1 | ATCC 29213 (linezolid-resistant) | 8 µg/mL
O=C(Nc1cccc(C2=NCCN2)c1)Nc1cccc(C(F)(F)F)c1 | MI273 | 150 µM
O=C(NC[C@H]1CN(c2ccc3c(c2)-n2cccc2COC3)C(=O)O1)C1CC1 | ATCC 33591 (MRSA) | 4 µg/mL
CC[C@H]1OC(=O)[C@H](C)C(=O)[C@H](C)[C@@H](O[C@@H]2O[C@H](C)C[C@H](N(C)C)[C@H]2O)[C@@]2(C)C[C@@H](C)C(=NC(C)=O)[C@H](C)C(OC/C(=C\C#Cc3ccccc3)CO2)[C@]1(C)O | 27660 (erythromycin-resistant) | 0.25 µg/mL
CCc1cc(Nc2cc(=O)n(CC3CCN(C(=O)c4ccc(C(F)(F)F)o4)CC3)c(=O)[nH]2)ccc1C | - | 4 µg/mL
CCCCCCCCCCCC[N+](C)(C)COCCC(C)CCCC(C)C | ATCC 6538 | 11.9 µM
CC(C)(Br)C(=O)NC[C@H]1CN(c2ccc3c(c2)-n2cccc2COC3)C(=O)O1 | ATCC 29213 (MSSA) | 32 µg/mL
CN1COc2c(N3CC4C5CCC(N)(CC5)C4C3)c(F)c(N)c3c(=O)c(C(=O)O)cn1c23 | 133 | 0.031 µg/mL
CC(=S)NC[C@H]1CN(c2ccc(-c3nnc(CNC=O)s3)c(F)c2)C(=O)O1 | UC9213 (methicillin-susceptible) | <0.5 µg/mL
O=C(Nc1cccc(C2=NCCN2)c1)Nc1cccc(C2=NCCN2)c1 | MI273 | 111 µM
CC(=O)NC[C@H]1CN(c2ccc(SCc3ncon3)c(F)c2)C(=O)O1 | ATCC 29213 (linezolid-resistant) | >64 µg/mL
CC(=O)NC[C@H]1CN(c2ccc(-c3cccs3)c(F)c2)C(=O)O1 | UC6685 (methicillin-resistant) | 0.5 µg/mL
COC(=O)N1CC=C(c2ccc(C3=NO[C@H](CNC(=O)O)C3)cc2)CC1 | UC9218 | >16 µg/mL
CCCCCCCCCCCC[N+](C)(C)COCCCCCCCCCCC | ATCC 6538 | 11.5 µM
CC(=O)NC[C@H]1CN(c2ccc(-c3cc(C#N)cs3)c(F)c2)C(=O)O1 | UC6685 (methicillin-resistant) | ≤0.5 µg/mL
CCCCCCCCCCCC[N+](C)(C)CSCCCCC | ATCC 6538 | 13.7 µM
CCc1cc(Nc2cc(=O)n(CCCC(=O)NCc3ccco3)c(=O)[nH]2)ccc1C | - | 64 µg/mL
Cc1cn(-c2ccc(N3C[C@H](COc4ccon4)OC3=O)cc2F)cn1 | 078 (oxford) | 1 µg/mL
CC(=S)NC[C@H]1CN(c2ccc3c(c2)-n2cccc2COC3)C(=O)O1 | ATCC 33591 (MRSA) | 0.5 µg/mL
O=C(CC(=O)Nc1cc(C(F)(F)F)cc(C(F)(F)F)c1)Nc1cccc(C2=NCCN2)c1 | MI273 | 75 µM
CC(=S)NC[C@H]1CN(c2ccc(-c3nnc([C@@H](N)CO)s3)c(F)c2)C(=O)O1 | UC9213 (methicillin-susceptible) | 1 µg/mL
O=C1O[C@@H](COc2ccon2)CN1c1ccc(-n2ccnc2)c(F)c1 | 078 (oxford) | 1 µg/mL
CC[C@H]1OC(=O)[C@H](C)C(=O)[C@H](C)[C@@H](O[C@@H]2O[C@H](C)C[C@H](N(C)C)[C@H]2O)[C@@]2(C)C[C@@H](C)C(=NC(=O)CO)[C@H](C)C(OC/C(=C\C=C\c3ccccc3)CO2)[C@]1(C)O | 27660 (erythromycin-resistant) | 0.5 µg/mL
O=C(O)NC[C@H]1CC(c2ccc(N3CCOCC3)c(F)c2)=NO1 | UC9218 | 4 µg/mL
CC(=O)NC[C@H]1CN(c2ccc(-n3cnc(C=CC#N)c3)c(F)c2)C(=O)O1 | Novobiocin-resistant | 0.25 µg/mL
O=C1O[C@@H](COc2ccon2)CN1c1ccc(N2CCOCC2)c(F)c1 | 078 (oxford) | 2 µg/mL
CCCCCCCCCCCC[N+](C)(C)COCC(C)C | ATCC 6538 | 2.98 µM
CC(=O)NC[C@H]1CN(c2ccc(-c3ccn(C(C)=O)n3)c(F)c2)C(=O)O1 | UC9213 (methicillin-susceptible) | 4 µg/mL
CCC(=O)N=C1[C@H](C)C[C@@]2(C)OC/C(=C/C=C/c3ccccc3)COC([C@H]1C)[C@](C)(O)[C@@H](CC)OC(=O)[C@H](C)C(=O)[C@H](C)[C@H]2O[C@@H]1O[C@H](C)C[C@H](N(C)C)[C@H]1O | 29213 (erythromycin-susceptible) | 0.5 µg/mL
CO/N=C1\CN(c2nc3c(cc2F)c(=O)c(C(=O)O)cn3C2CC2)CC1CN | KU2242 | 0.063 µg/mL
CCc1cc(Nc2cc(=O)n(CC3CCN(C(=O)c4ccc(Cn5cc(Cl)cn5)o4)CC3)c(=O)[nH]2)ccc1C | - | 4 µg/mL
NC(=O)NNC(=O)Nc1cc(C(F)(F)F)cc(C(F)(F)F)c1 | MI273 | 140 µM
C=CC(=O)NC[C@H]1CN(c2ccc3c(c2)-n2cccc2COC3)C(=O)O1 | ATCC 49951 (SMITH) | 2 µg/mL
CC(=O)NC[C@H]1CN(c2ccc(-c3cncs3)c(F)c2)C(=O)O1 | UC6685 (methicillin-resistant) | 0.5 µg/mL

Repeating the final 4 entries:

smiles	strain or isolate	value
CCc1cc(Nc2cc(=O)n(CC3CCN(C(=O)c4ccc(Cn5cc(Cl)cn5)o4)CC3)c(=O)[nH]2)ccc1C	-	4 µg/mL
NC(=O)NNC(=O)Nc1cc(C(F)(F)F)cc(C(F)(F)F)c1	MI273	140 µM
C=CC(=O)NC[C@H]1CN(c2ccc3c(c2)-n2cccc2COC3)C(=O)O1	ATCC 49951 (SMITH)	2 µg/mL
CC(=O)NC[C@H]1CN(c2ccc(-c3cncs3)c(F)c2)C(=O)O1	UC6685 (methicillin-resistant)	0.5 µg/mL